The numbers were not newly measured in patent US20120034296A1 (priority 2009, published 2012), which cites them from elsewhere.

The data set deals with nerve. As to conditions: without epinephrine; cited from earlier work.

Regarding `NC1=N[C@H](O)[C@H]2[C@H]3O[C@]4(O)O[C@@H]([C@@H](O)[C@@]2(N1)[C@@H]4O)[C@]3(O)CO`, the “toxicity in sciatic nerve block” value is given as “considerable toxicity at the most effective doses”.
